Mutational tolerance of the Zika virus NS2B-NS3 protease

Source: Ni et al. 2025 (doi:10.1038/s41467-025-63602-z), supplementary data.

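Mutant virus pools were grown in human Huh-7.5 cells. Deep sequencing gave the change in frequency of each mutant relative to wild type, averaged over three replicate libraries (two for positions 207-308). The aim was to find sites where inhibitor-binding pockets cannot change.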

The scanned region of Zika virus MR766 is shown below (positions 1-308): NS2B is 2-131, NS3 begins at position 132.
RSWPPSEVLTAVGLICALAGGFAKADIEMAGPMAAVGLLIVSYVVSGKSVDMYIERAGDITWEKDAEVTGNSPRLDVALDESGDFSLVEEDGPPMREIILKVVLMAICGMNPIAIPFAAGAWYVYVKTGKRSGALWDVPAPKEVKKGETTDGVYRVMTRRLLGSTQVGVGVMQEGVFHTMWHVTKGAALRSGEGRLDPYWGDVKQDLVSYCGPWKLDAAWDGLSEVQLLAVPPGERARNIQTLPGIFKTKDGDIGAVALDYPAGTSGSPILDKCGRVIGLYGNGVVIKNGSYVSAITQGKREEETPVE

Scale: log2 effect, wild type = 0; the lower, the more harmful to the virus.
Substitutions are written as wild-type residue, site number, new residue.

change | log2 growth effect
M172* | -8.58
M172A | -6.71
M172C | -5.87
M172D | -5.61
M172E | -5.96
M172F | -2.66
M172G | -6.87
M172H | -5.45
M172I | -2.17
M172K | -6.30
M172L | -3.11
M172N | -5.65
M172P | -6.39
M172Q | -6.29
M172R | -7.22
M172S | -7.11
M172T | -6.50
M172V | -3.66
M172W | -5.56
M172Y | -5.46
Q173* | -6.80
Q173A | -0.21
Q173C | -1.64
Q173D | -3.00
Q173E | -1.56
Q173F | -2.07
Q173G | -6.25
Q173H | -1.13
Q173I | -5.10
Q173K | -2.72
Q173L | -5.27
Q173M | -2.21
Q173N | -2.41
Q173P | -7.33
Q173R | -3.34
Q173S | -0.06
Q173T | -2.77
Q173V | -4.56
Q173W | -2.41
Q173Y | -2.79
E174* | -5.41
E174A | -4.61
E174C | -3.44
E174D | -3.11
E174F | -4.29
E174G | -5.93
E174H | -5.51
E174I | -5.66
E174K | -5.94
E174L | -6.19
E174M | -5.12
E174N | -5.37
E174P | -6.88
E174Q | -4.83
E174R | -5.13
E174S | -4.42
E174T | -5.62
E174V | -6.88
E174W | -5.55
E174Y | -3.78
G175* | -5.05
G175A | -5.95
G175C | -4.16
G175D | -3.43
G175E | -4.25
G175F | -4.61
G175H | -2.69
G175I | -4.05
G175K | -4.07
G175L | -6.42
G175M | -4.52
G175N | -0.07
G175P | -5.97
G175Q | -2.52
G175R | -4.86
G175S | -3.13
G175T | -5.79
G175V | -3.77
G175W | -4.79
G175Y | -4.39
V176* | -7.18
V176A | -5.29
V176C | -3.48
V176D | -4.56
V176E | -4.94
V176F | -4.21
V176G | -6.33
V176H | -4.43
V176I | -2.30
V176K | -5.03
V176L | -6.87
V176M | -5.05
V176N | -3.42
V176P | -6.52
V176Q | -5.39
V176R | -6.67
V176S | -5.76
V176T | -1.79
V176W | -5.13
V176Y | -4.35

Excerpt, the final 14 entries:

* V176G = -6.33
* V176H = -4.43
* V176I = -2.30
* V176K = -5.03
* V176L = -6.87
* V176M = -5.05
* V176N = -3.42
* V176P = -6.52
* V176Q = -5.39
* V176R = -6.67
* V176S = -5.76
* V176T = -1.79
* V176W = -5.13
* V176Y = -4.35

Six mutants with high scores were retested singly and none clearly outgrew wild type, so positive values are not proof of better growth.
An asterisk is a stop codon; stop codons read about -7, near the floor of the assay.
The authors count -1 or higher as tolerated. Position 1 is the last residue of NS2A.
The region was split into three libraries (1-103, 104-206, 207-308).